From patent US20100074916A1, “AVIAN INFLUENZA VACCINE” (published 2010)

Key:
Dk97 = conditions: reference strain, symbols not defined in the patent; cited from earlier work
Viet04 = conditions: reference strain, symbols not defined in the patent; cited from earlier work
wild type H5 KAN-1 HA = assay: Glycan microarray, glycan binding by control (wild type) HA

Row | Substance | binding Dk97 (Dk97) | binding Viet04 (Viet04) | CONTROL (wild type H5 KAN-1 HA)
1 | Ceruloplasmine | nb | nb | 
2 | Fibrinogen | nb | nb | 
3 | Galβ1-3(Neu5Acα2-3Galβ1-4(Fucα1-3)GlcNAcβ1-6)GalNAc-Sp14 |  |  | 404 RFU
4 | Neu5Acα2-3Galβ1-3(Fucα1-4)GlcNAcβ-Sp8 |  |  | 820 RFU
5 | Neu5Acα2-3Galβ1-3(Neu5Acα2-3Galβ1-4GlcNAcβ1-6)GalNAc-Sp14 |  |  | 62478 RFU
6 | Neu5Acα2-3Galβ1-4(Fucα1-3)GlcNAcβ1-3Galβ1-4(Fucα1-3)GlcNAcβ1-3Galβ1-4(Fucα1-3)GlcNAcβ-Sp0 |  |  | 2248 RFU
7 | Neu5Acα2-3Galβ1-4GlcNAcβ1-2Manα1-3(Neu5Acα2-3Galβ1-4GlcNAcβ1-2Manα1-6)Manβ1-4GlcNAcβ1-4GlcNAcβ-Sp12 |  |  | 55128 RFU
8 | Neu5Acβ2-6GalNAcα-Sp8 |  |  | 79 RFU
9 | Neu5Acβ2-6Galβ1-4GlcNAcβ-Sp8 |  |  | 39 RFU
10 | NeuAcα2-3Galβ1-3(Fucα1-4)GlcNAcβ1-3Galβ1-4(Fucα1-3)GlcNAcβ Sp0 |  |  | 2351 RFU
11 | Transferrin | nb | nb | 
12 | α1-Acid Glycoprotein B | nb |  | 
